Measured values from several laboratories, pooled; numbers as filed in NIAID ChemDB.

Shared fields: enzyme or target tests; agent: HIV; target: Reverse transcriptase; read-out: IC50

Conditions beyond the fields shown may differ between rows.

SMILES | changes | method | result
Fc1cccc(F)c1CC(=S)NCc1ccccn1 | K103N | radiometric | >100 µM
Nc1ncnc2c1ncn2[C@H]1CC[C@@H](COP(=O)(O)OP(=O)(O)OP(=O)(O)OP(=O)(O)OC[C@@H]2CC[C@H](n3cnc4c(N)ncnc43)O2)O1 | RT-D67N K70R T215Y K219Q | nucleotide incorporation / radiometric | 0.65 µM
O=C(/C=C/C1=CC2C=Cc3cc(O)c(O)cc3OC2C(O)=C1)OC(Cc1ccc(O)c(O)c1)C(=O)O |  |  | 67.1–193 µg/mL
COc1ccc2nc3cc(Cl)ccc3c(NCCCCCCN)c2c1 |  | nucleotide incorporation / radiometric | 7.6 µg/mL
Nc1nc2c(ncn2[C@H]2CC[C@@H](COP(=O)(O)OP(=O)(O)OP(=O)(O)O)O2)c(=O)[nH]1 | RT-M41L T215Y | nucleotide incorporation / radiometric | 0.082 µM
CC(C)c1c(Cc2cccc3ccccc23)nc(Sc2cccs2)[nH]c1=O |  | ELISA | 528 µM
Cc1ccnc2c1NC(=O)c1cc(N)cnc1N2C1CC1 | Y181C | RT activity | 61 µM
COc1ccc2nc3cc(Cl)ccc3c(NCC(C)(C)CN)c2c1 |  | nucleotide incorporation / radiometric | 23 µg/mL
Nc1ncnc2c1ncn2[C@H]1CC[C@@H](COP(=O)(O)OP(=O)(O)OP(=O)(O)O)O1 |  | radiometric | 0.05 µM
CC(C)c1c(Cc2ccccc2)nc(SCCc2ccccc2)[nH]c1=O |  | ELISA | 549 µM
CC(C)=CCOc1cc(NC(=S)c2ccoc2C)ccc1Cl |  |  | 5.2 µM
Nc1ccn([C@H]2CC[C@@H](COP(=O)(O)OP(=O)(O)OP(=O)(O)O)O2)c(=O)n1 | RT-M41L T215Y | nucleotide incorporation / radiometric | 0.095 µM
CCN1c2nc(Cl)ccc2NC(=O)c2cc(CSc3ccccc3)cnc21 | Y181C | RT activity | 1.5 µM
COc1ccc2nc3cc(Cl)ccc3c(NCCNCCN)c2c1 |  | nucleotide incorporation / radiometric | 8.4 µg/mL
CCCCCCCCCCCCCCCCCC(=O)NCCN(CC(=O)O)C(=O)Cn1cc(C)c(=O)[nH]c1=O |  |  | 65 µM
CCN1c2ncc(CSc3cccc(OC)c3)cc2C(=O)Nc2c(C)cc(Cl)nc21 | K103N | RT activity | 0.428 µM
Nc1nc2c(ncn2[C@H]2CC[C@@H](COP(=O)(O)OP(=O)(O)OP(=O)(O)O)O2)c(=O)[nH]1 | RT-V60T | nucleotide incorporation | 0.036 µM
CCN1c2ncc(CSc3cccc(OC)c3)cc2C(=O)N(C)c2c(C)cc(Cl)nc21 | Y181C | RT activity | 0.118 µM
CCc1c(Cc2cccc3ccccc23)nc(SCC(=O)c2ccco2)[nH]c1=O |  | ELISA | 17.5 µM
Cc1cn([C@H]2C[C@H](N=[N+]=[N-])[C@@]3(COP(=O)(O)OP(=O)(O)OP(=O)(O)O)CC23)c(=O)[nH]c1=O |  |  | ~0.007 µM
COc1ccc2nc3cc(Cl)ccc3c(NCCCN3CCN(CCCN)CC3)c2c1 |  | nucleotide incorporation / radiometric | 13 µg/mL
CC(C)=CCOc1cc(NC(=S)c2ccsc2C)ccc1Cl |  |  | 0.2 µM
C=C(C)OC(=O)N1c2cc(Cl)ccc2NC(=S)C1(C)C | RT-Y181C | radiometric | 7.1 µM
Nc1ccn([C@H]2CC[C@@H](COP(=O)(O)OP(=O)(O)OP(=O)(O)O)O2)c(=O)n1 | RT-F77L Q151M | nucleotide incorporation / radiometric | 2.6 µM
CCN1c2nc(Cl)ccc2NC(=O)c2cc(CSc3cccc(OC)c3)cnc21 | Y181C | RT activity | 2.9 µM
Fc1cccc(F)c1CC(=S)NCCc1ccccn1 | Y181I | radiometric | >100 µM
Cc1cc(Cc2ccc(Cl)c(Oc3cc(Cl)cc(C#N)c3)c2F)n[nH]c1=O |  | nucleotide incorporation | 0.001 µM
Cc1cc(Cc2ccc(Cl)c(Oc3cc(F)cc(C#N)c3)c2F)n[nH]c1=O | WT |  | 0.001 µM
COc1ccc2nc3cc(Cl)ccc3c(NCCCN(C)CCCN)c2c1 |  | nucleotide incorporation / radiometric | 6.8 µg/mL
S=C(Cc1ccccn1)Nc1ccc(Cl)cc1 | L100I | radiometric | >100 µM
COc1ccc2nc3cc(Cl)ccc3c(NCCN(CCN)CCN)c2c1 |  | nucleotide incorporation / radiometric | 5.6 µg/mL
Nc1ccn([C@H]2CC[C@@H](COP(=O)(O)OP(=O)(O)OP(=O)(O)OP(=O)(O)OC[C@@H]3CC[C@H](n4ccc(N)nc4=O)O3)O2)c(=O)n1 | RT-W88G | nucleotide incorporation / radiometric | 9.2 µM
Cc1c(Cc2cccc3ccccc23)nc(SCC(=O)c2ccco2)[nH]c1=O |  | ELISA | 5.99 µM

Again, the opening 3 rows:

SMILES | changes | method | result
Fc1cccc(F)c1CC(=S)NCc1ccccn1 | K103N | radiometric | >100 µM
Nc1ncnc2c1ncn2[C@H]1CC[C@@H](COP(=O)(O)OP(=O)(O)OP(=O)(O)OP(=O)(O)OC[C@@H]2CC[C@H](n3cnc4c(N)ncnc43)O2)O1 | RT-D67N K70R T215Y K219Q | nucleotide incorporation / radiometric | 0.65 µM
O=C(/C=C/C1=CC2C=Cc3cc(O)c(O)cc3OC2C(O)=C1)OC(Cc1ccc(O)c(O)c1)C(=O)O |  |  | 67.1–193 µg/mL

An empty or dashed field is not shown. a–b is a range or a potency band. ICn is the concentration giving n% inhibition.